Results of unrelated studies side by side (data: NIAID ChemDB).

Shared fields: growth or infection tests; species: Haemophilus influenzae

MIC50, MIC90 and the like: level of inhibition, or share of isolates inhibited.

smiles | endpoint | strain or isolate | value
C#CCOC[C@H]1/C=C(C)/C=C/C(=O)[C@H](C)CC(C=O)[C@H](O[C@@H]2O[C@H](C)[C@@H](O)[C@H](N(C)C)[C@H]2O)[C@@H](C)[C@H](O)CC(=O)O[C@@H]1CC | MIC | 33929 (ampicillin-resistant) | 1 µg/mL
CC[C@H]1OC(=O)[C@@](C)(F)C(=O)[C@H](C)[C@@H](O[C@@H]2O[C@H](C)C[C@H](N(C)C)[C@H]2O)[C@@]2(C)C[C@@H](C)C(=N)[C@H](C)[C@@H](OC/C(=N\OCc3ccc(-c4nccs4)nc3)CO2)[C@]1(C)O | MIC | 33929 (ampicillin-resistant) | 4 µg/mL
CC[C@H]1OC(=O)C[C@@H](O)[C@H](C)[C@@H](O[C@@H]2O[C@H](C)[C@@H](O)[C@H](N(C)C)[C@H]2O)C(C=O)C[C@@H](C)C(=O)/C=C/C(C)=C/[C@@H]1COC(=O)Nc1ccc(OC)cc1 | MIC | 33929 (ampicillin-resistant) | 2 µg/mL
CC[C@H]1OC(=O)[C@H](C)C(=O)[C@H](C)[C@@H](O[C@@H]2O[C@H](C)C[C@H](N(C)C)[C@H]2O)[C@@]2(C)C[C@@H](C)C(=NC(C)=O)[C@H](C)C(OC/C(=C\C=C\c3ccc(F)cc3)CO2)[C@]1(C)O | MIC | 33929 (ampicillin-resistant) | 16 µg/mL
CC[C@H]1OC(=O)[C@@](C)(F)C(=O)[C@H](C)[C@@H](O[C@@H]2O[C@H](C)C[C@H](N(C)C)[C@H]2O)[C@@]2(C)C[C@@H](C)C(=NC(C)=O)[C@H](C)[C@@H](OC/C(=N\OCc3ccc(-c4nccs4)nc3)CO2)[C@]1(C)O | MIC | 33929 (ampicillin-resistant) | 4 µg/mL
CC[C@H]1OC(=O)[C@H](C)C(=O)[C@H](C)[C@@H](O[C@@H]2O[C@H](C)C[C@H](N(C)C)[C@H]2O)[C@@]2(C)C[C@@H](C)C(=NC(C)=O)[C@H](C)C(OC/C(=C\C#Cc3ccc(N)nc3)CO2)[C@]1(C)O | MIC | 33929 (ampicillin-resistant) | 4 µg/mL
CC[C@H]1OC(=O)C[C@@H](O)[C@H](C)[C@@H](O[C@@H]2O[C@H](C)[C@@H](O)[C@H](N(C)C)[C@H]2O)C(C=O)C[C@@H](C)C(=O)/C=C/C(C)=C/[C@@H]1CO | MIC | 33929 (ampicillin-resistant) | 1 µg/mL
CC[C@H]1OC(=O)[C@H](C)C(=O)[C@H](C)[C@@H](O[C@@H]2O[C@H](C)C[C@H](N(C)C)[C@H]2O)[C@@]2(C)C[C@@H](C)C(=NC(=O)CO)[C@H](C)C(OC/C(=C\C=C\c3ccccc3)CO2)[C@]1(C)O | MIC | 33929 (ampicillin-resistant) | 16 µg/mL
CC[C@H]1OC(=O)C[C@@H](O)[C@H](C)[C@@H](O[C@@H]2O[C@H](C)[C@@H](O)[C@H](N(C)C)[C@H]2O)C(C=O)C[C@@H](C)C(=O)/C=C/C(C)=C/[C@@H]1COC(=O)Nc1ccccc1 | MIC | 33929 (ampicillin-resistant) | 1 µg/mL
CC[C@H]1OC(=O)[C@H](C)C(=O)[C@H](C)[C@@H](O[C@@H]2O[C@H](C)C[C@H](N(C)C)[C@H]2O)[C@@]2(C)C[C@@H](C)C(=NC(C)=O)[C@H](C)C(OC/C(=C\C#Cc3ccccc3)CO2)[C@]1(C)O | MIC | 33929 (ampicillin-resistant) | 4 µg/mL
CC[C@H]1OC(=O)C[C@@H](O)[C@H](C)[C@@H](O[C@@H]2O[C@H](C)[C@@H](O)[C@H](N(C)C)[C@H]2O)C(C=O)C[C@@H](C)C(=O)/C=C/C(C)=C/[C@@H]1COC/C=C/c1cnc2ccccc2c1 | MIC | 33929 (ampicillin-resistant) | 8 µg/mL
CC[C@H]1OC(=O)[C@@](C)(F)C(=O)[C@H](C)[C@@H](O[C@@H]2O[C@H](C)C[C@H](N(C)C)[C@H]2O)[C@@]2(C)C[C@@H](C)C(=NC(C)=O)[C@H](C)[C@@H](OC/C(=N\OCc3ccc(-c4ncccn4)s3)CO2)[C@]1(C)O | MIC | 33929 (ampicillin-resistant) | 8 µg/mL
CC[C@H]1OC(=O)[C@H](C)C(=O)[C@H](C)[C@@H](O[C@@H]2O[C@H](C)C[C@H](N(C)C)[C@H]2O)[C@@]2(C)C[C@@H](C)C(=NC(C)=O)[C@H](C)C(OC/C(=C\c3ccccc3)CO2)[C@]1(C)O | MIC | 33929 (ampicillin-resistant) | 32 µg/mL
CC[C@H]1OC(=O)[C@H](C)C(=O)[C@H](C)[C@@H](O[C@@H]2O[C@H](C)C[C@H](N(C)C)[C@H]2O)[C@@]2(C)C[C@@H](C)C(=NC(C)=O)[C@H](C)[C@@H](OC/C(=N\OCc3ccc(-n4cccn4)nc3)CO2)[C@]1(C)O | MIC50 | 25 strains | 4 µg/mL
CC[C@H]1OC(=O)[C@H](C)C(=O)[C@H](C)[C@@H](O[C@@H]2O[C@H](C)C[C@H](N(C)C)[C@H]2O)[C@@]2(C)C[C@@H](C)C(=NC(C)=O)[C@H](C)[C@@H](OC/C(=N\OCc3ccc(-c4ncccn4)s3)CO2)[C@]1(C)O | MIC | 33929 (ampicillin-resistant) | 8 µg/mL

2 of the rows above, restated:

smiles | endpoint | strain or isolate | value
CC[C@H]1OC(=O)[C@H](C)C(=O)[C@H](C)[C@@H](O[C@@H]2O[C@H](C)C[C@H](N(C)C)[C@H]2O)[C@@]2(C)C[C@@H](C)C(=NC(C)=O)[C@H](C)C(OC/C(=C\C=C\c3ccc(F)cc3)CO2)[C@]1(C)O | MIC | 33929 (ampicillin-resistant) | 16 µg/mL
CC[C@H]1OC(=O)[C@H](C)C(=O)[C@H](C)[C@@H](O[C@@H]2O[C@H](C)C[C@H](N(C)C)[C@H]2O)[C@@]2(C)C[C@@H](C)C(=NC(C)=O)[C@H](C)C(OC/C(=C\C#Cc3ccc(N)nc3)CO2)[C@]1(C)O | MIC | 33929 (ampicillin-resistant) | 4 µg/mL

Rows are shuffled and stem from different studies.